This assay is described as follows: Activity assay for influenza virus neuraminidase: Experimental materials:NA (neuraminidase) solution: allantoic fluid of chicken embryo infected by influenza virus;Enzyme catalyzed reaction system: 330 mmol/L of MES buffer solution (pH 3.5); 200 μmol/L of fluorogenic substrate MUNANA (2′-(4-methylumbelliferyl)-α-D-N-acetylneuraminic acid);4 mmol/L of CaCl2 solution; Stop buffer: 14 mmol/L.

As a reminder, the IC50 is the midpoint of a concentration-inhibition curve. Low values mean greater potency, high ones weaker potency.

Each structure is given as a SMILES string.

Turning to `COCCO[C@@H]1CCCN([C@@H]2C=C(OC=O)C[C@H](N)[C@H]2NC(C)=O)C1`, the IC50 is less than 1 nM.
The result for `COCCO[C@@H]1CCCN([C@@H]2C=C(OC=O)C[C@H](NC(=N)N)[C@H]2NC(C)=O)C1` reads less than 1 nM; that for `CC(=O)N[C@H]1[C@H](N2CCC[C@@H](OCCOCC3CC3)C2)C=C(OC=O)C[C@@H]1N`, 5.5 nM; that for `CC(=O)N[C@H]1[C@H](N2CCC[C@H](OCCOC(=O)N3CCOCC3)C2)C=C(C(=O)O)C[C@@H]1N`, 5.5 nM.

Values taken from ChEMBL document CHEMBL5728271, “Cyclohexene compounds and use thereof” (2021).
